Anti-infective test results gathered from many reports (values: NIAID ChemDB through PubChem).

All rows: tests in culture; species: HIV-1; read by: p24; endpoint: inhibition

Inhibition is in % at the dose shown (toxicity tests: loss of growth or viability). Lines come from different laboratories, so protocols vary.

NCC(=O)N1CCC[C@H]1C(=O)NCC(N)=O ; cells: MT-2 ; strain or isolate: LAV ; tested at: 200 µM ; result: 68%
CCOc1cccc(-c2cc(C(=O)N/N=C/c3ccc(OC)c(CN4CCOCC4)c3)c3ccccc3n2)c1 ; cells: MT-2 ; strain or isolate: IIIB ; tested at: 10 µM ; result: 62.6%
Nc1ccc(S(=O)(=O)O)c2cccc(O)c12 ; cells: H9 ; tested at: 20 µg/mL ; result: 50%
CSc1cc(N)nc(S[C@@H](C)c2cc3ccoc3cn2)n1 ; cells: MT-4 ; mutations: RT-P236L ; strain or isolate: MF DLV-resistant (RT P236L) ; tested at: 0.02 µM ; result: 90%
Nc1ncnc2c1ncn2C1OC(COP(=O)(O)OC2C(O)C(COP(=O)(O)OC3C(O)C(CO)OC3n3cnc4c(N)ncnc43)OC2n2cnc3c(N)ncnc32)CC1O ; cells: H9 ; strain or isolate: IIIB ; tested at: 1 µM ; result: 5%
COc1ccc(C[C@H]2COC(=O)[C@@H]2Cc2ccc(O[C@@H]3O[C@H](CO)[C@@H](O)[C@H](O)[C@H]3O)c(OC)c2)cc1OC ; cells: H9 ; strain or isolate: IIIB ; tested at: 0.05 µM ; result: 0%
CCN(CC)CCCC(C)Nc1ccnc2cc(Cl)ccc12 ; cells: U-937 ; tested at: 100 µM ; result: 65.83%
O=C(O)C[C@H]1C(=O)O[C@H]2[C@H](OC(=O)c3cc(O)c(O)c(O)c3)[C@@H](OC(=O)c3cc(O)c(O)c4c3[C@H]1[C@H](O)C(=O)O4)[C@H](OC(=O)c1cc(O)c(O)c(O)c1)O[C@@H]2COC(=O)c1cc(O)c(O)c(O)c1 ; cells: H9 ; strain or isolate: IIIB ; tested at: 5 µg/mL ; result: 80%
Nc1ncnc2c1ncn2C1OC(COP(=O)(O)OC2CC(COP(=O)(O)OC3C(O)C(CO)OC3n3cnc4c(N)ncnc43)OC2n2cnc3c(N)ncnc32)CC1O ; cells: H9 ; strain or isolate: IIIB ; tested at: 1 µM ; result: 65%
O=C(O)C(O)c1ccccc1 ; cells: U87 (CD4+ CXCR4+) + U87 ; strain or isolate: IIIB ; tested at: 1 µg/mL ; result: 14%
CC(=O)N1CCC(C(=O)N(CCCN2CCC(Cc3ccc(C(N)=O)cc3)CC2)c2ccc(C)c(Cl)c2)CC1 ; cells: PBMC ; strain or isolate: HKW Clinical isolates ; tested at: 0.012 µM ; result: 90%
O[C@H]1OC[C@H](Cc2ccc3c(c2)OCO3)[C@H]1Cc1ccc2c(c1)OCO2 ; cells: H9 ; strain or isolate: IIIB ; tested at: 0.05 µM ; result: 0%
CO[C@H]1C[C@@H]2CC[C@@H](C)[C@@](O)(O2)C(=O)C(=O)N2CCCC[C@H]2C(=O)O[C@H]([C@H](C)C[C@@H]2CC[C@@H](O)[C@H](OC)C2)CC(=O)[C@H](C)/C=C(\C)[C@@H](O)[C@@H](OC)C(=O)[C@H](C)C[C@H](C)/C=C/C=C/C=C/1C ; cells: PBMC ; strain or isolate: ADA R5 ; tested at: 0.01 µM ; result: 91%
CCOc1ccccc1N(CC(=O)Nc1ccc(S(=O)(=O)Nc2cccc(C(F)(F)F)c2)cc1)S(C)(=O)=O ; cells: MT-2 ; strain or isolate: IIIB ; tested at: 10 µM ; result: 57.2%
Nc1ncnc2c1ncn2[C@@H]1O[C@H](COP(=O)(O)O[C@@H]2[C@H](O)[C@@H](COP(=O)(O)O[C@@H]3[C@H](O)[C@@H](CO)O[C@H]3n3cnc4c(N)ncnc43)O[C@H]2n2cnc3c(N)ncnc32)[C@@H](O)[C@H]1O ; cells: H9 ; strain or isolate: IIIB ; tested at: 1 µM ; result: 10%
O=C1OCC2OC(O)C(O)C(O)C2OC(=O)c2cc(O)c(O)c(O)c2-c2c(O)c(O)c3oc(=O)c4c(c(O)c(O)c5oc(=O)c2c3c54)-c2c1cc(O)c(O)c2O ; cells: H9 ; strain or isolate: IIIB ; tested at: 0.2 µg/mL ; result: 10%
Cc1cc2ccccc2c(-c2ccc3c4c(ccnc24)CCO3)c1[C@H](OC(C)(C)C)C(=O)O ; cells: PBMC ; strain or isolate: BaL ; tested at: 0.035 µM ; result: 95%
Cc1ccc(-c2ccc3c(c2)C=C(C(=O)Nc2ccc(C[N+](C)(C)C4CCOCC4)cc2)CCC3)cc1 ; cells: PBMC ; strain or isolate: CM7 CLADE C ; tested at: 1 µM ; result: 97.4%
NCCSSCCN ; cells: Macrophage ; strain or isolate: BaL ; tested at: 100 µM ; result: 72%
NC(=O)n1c(O)c(C(=O)c2cccs2)c2cc(Cl)ccc21 ; cells: H9 ; strain or isolate: MN ; tested at: 45 µM ; result: 69%
O=C(O)C[C@@H]1C(=O)O[C@H]2[C@@H]3OC(=O)c4cc(O)c(O)c(O)c4-c4c(cc(O)c(O)c4O)C(=O)OC[C@H]2O[C@@H](OC(=O)c2cc(O)c(O)c(O)c2)[C@@H]3OC(=O)c2cc(O)c(O)c3c2[C@H]1[C@H](O)C(=O)O3 ; cells: H9 ; strain or isolate: IIIB ; tested at: 0.2 µg/mL ; result: 3%
C[C@H]1[C@@H](OC(=O)CCC(=O)O)O[C@@H]2O[C@@]3(C)CC[C@H]4[C@H](C)CC[C@@H]1[C@@]24OO3 ; cells: Jurkat cells ; strain or isolate: NL4-3 ; tested at: 0.6 µM ; result: 48%
O=C(CCCCCCCCCCC(=O)Nc1cc(S(=O)(=O)O)cc2cc(S(=O)(=O)O)cc(O)c12)Nc1cc(S(=O)(=O)O)cc2cc(S(=O)(=O)O)cc(O)c12 ; cells: H9 ; tested at: 2 µg/mL ; result: 0%
O=C1O[C@@H]2[C@@H](OC(=O)c3cc(O)c(O)c(O)c3-c3c1cc(O)c(O)c3O)[C@@H](O)O[C@@H]1COC(=O)c3cc(O)c(O)c(O)c3-c3c(O)c(O)c4oc(=O)c5c(c(O)c(O)c6oc(=O)c3c4c65)-c3c(cc(O)c(O)c3O)C(=O)O[C@@H]21 ; cells: H9 ; strain or isolate: IIIB ; tested at: 0.2 µg/mL ; result: 2%
C[C@@H](O)CCCCn1c(=O)c2c(ncn2C)n(C)c1=O ; cells: U1(HIV-1 (LAV)) + U1 ; strain or isolate: LAV ; tested at: 200 µM ; result: 55%
C=CC(C)(/C=C\c1ccc(O)cc1)c1ccc(O)cc1.NC(=O)NO ; cells: Macrophage ; strain or isolate: 6366 ; tested at: 0.00054 µM ; result: 90%
Nc1ncnc2c1ncn2[C@@H]1O[C@H](COP(=O)([O-])O[C@@H]2C[C@@H](COP(=O)([O-])O)O[C@H]2n2cnc3c(N)ncnc32)[C@@H](O)[C@H]1OP(=O)([O-])OC[C@@H]1C[C@@H](O)[C@H](n2cnc3c(N)ncnc32)O1 ; cells: H9 ; strain or isolate: IIIB ; tested at: 1 µM ; result: 75%
COc1cc(/C=C2\C(=O)N(c3ccccc3)N=C2c2ccccc2)cc(Br)c1OCC(N)=O ; cells: MT-2 ; strain or isolate: IIIB ; tested at: 10 µM ; result: 64.2%
Cc1cn([C@H]2C[C@H](N=[N+]=[N-])[C@@H](CO)O2)c(=O)[nH]c1=O ; cells: Macrophage + Monocytes/macrophages ; strain or isolate: IIIB ; tested at: 10 µg/mL ; result: 95%
COc1ccc(-c2cc(C(=O)Nc3ccc(S(=O)(=O)Nc4cc(C)nc(C)n4)cc3)c3ccccc3n2)cc1 ; cells: MT-2 ; strain or isolate: IIIB ; tested at: 10 µM ; result: 18.2%
CCN(CC)C(=S)S ; cells: PBL ; strain or isolate: LAV ; tested at: 0.00000025 µg/mL ; result: 17%
CCc1c(Sc2ccccc2)n(COCc2ccccc2)c(=O)[nH]c1=O ; cells: MT-4 ; strain or isolate: A012B ; tested at: 0.0058 µM ; result: 90%
O=C(O)C1=C[C@@H](OC(=O)c2cc(O)c(O)c(O)c2)[C@@H](OC(=O)c2cc(O)c(O)c(O)c2)[C@H](OC(=O)c2cc(O)c(O)c(O)c2)C1 ; cells: H9 ; strain or isolate: IIIB ; tested at: 1 µg/mL ; result: 30%